In publication PMC10269775, “Penicillin-Binding Protein Occupancy Dataset for 18 β-Lactams and 4 β-Lactamase Inhibitors in Neisseria gonorrhoeae” (Microbiology Spectrum, 2023):
pIC50: −log10 of the molar value.

Tests used:
PBP2 [1] = molecular target: T1, PBP2 (Neisseria gonorrhoeae, UniProt P08149, A510V/A516G/A574V/F504L/H541N/I556V/I566V/K555Q/P552V); test: biochemical; format: binding, Neisseria gonorrhoeae ATCC 49226; settings: IC50 PBP2, strain ATCC 49226; membrane preparation, 30 min drug then Bocillin FL
T1 construct: endogenous in cells; host or cells: N. gonorrhoeae ATCC 49226, isolated membrane preparation

PBP2 [2] = molecular target: T2, PBP2 (Neisseria gonorrhoeae, UniProt P08149, H541N); test: PBP-binding assay (Bocillin FL) in isolated membrane preparations; set-up: species or system Neisseria gonorrhoeae ATCC 19424
T2 construct: endogenous in cells; host or cells: N. gonorrhoeae ATCC 19424, isolated membrane preparation

Row | Structure (SMILES) | pIC50 (PBP2 [1]) | pIC50 (PBP2 [2]; IC50 PBP2, strain ATCC 19424, membrane preparation, 30 min drug then Bocillin FL) | pIC50 (PBP2 [2]; IC50 PBP2 (Table S1), strain ATCC 19424)
1 | C[C@@H](O)[C@H]1C(=O)N2C(C(=O)O)=C(S[C@@H]3CN[C@H](C(=O)N(C)C)C3)[C@H](C)[C@H]12 [MEM, meropenem] | 7.28 | 7.11 | –
2 | C[C@@H](O)[C@H]1C(=O)N2C(C(=O)O)=C(S[C@@H]3CN[C@H](C(=O)Nc4cccc(C(=O)O)c4)C3)[C@H](C)[C@H]12 [ETP, ertapenem] | – | – | 7.20
